{"source": "patent US11365220B2", "about": "“Methods of making anti-GP41 antibody-specific capture agents” (California Institute of Technology, priority 2013, dated 2022)", "conditions": "lyophilized, under N2 at 25° C., 37° C., or 57° C. for 58 days", "data": [{"substance": "Biotin-PEG5-IWCGSGKLICTTA-Pra-(TZ-Az4-eihny-CONH2)-ICTTA-CONH2 [(iii)]", "values": [{"measurement": "Degradation after storage (HPLC traces)", "value": "little to no degeneration"}]}]}
